For at least one entry, the source does not settle the construct or the ends of the probe. Tags and fusion partners may be left off the protein sequences shown. The direction of at least one scale is not stated here.
Target: T1, RcnR (Salmonella enterica serovar Typhimurium SL1344) (UniProt Q7CPV3)
T1 sequence (looked up, limits assumed): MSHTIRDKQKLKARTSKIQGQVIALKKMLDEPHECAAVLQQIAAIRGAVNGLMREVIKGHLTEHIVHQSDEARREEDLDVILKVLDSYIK
Assay: fluorescence anisotropy
Settings: 10 mM HEPES pH 7.0, 60 mM NaCl, 240 mM KCl, 5 mM EDTA (or 5 uM NiCl2/CoCl2), 25 C, 10 nM DNA, anaerobic except FrmRC35A, Kd per tetramer, recombinant protein, label: 5'-HEX on strand 1

TACTCCCCCCCAGTATAGAATACTACCCCCCAGTA (double strand) [rcnRAPro]
binding signal (fold weaker Kd vs apo) (50 uM formaldehyde, 5 mM EDTA): 2.5 | binding signal (fold weaker Kd vs apo) (100 uM formaldehyde, EDTA): 5 | Kd (Co(II)-RcnR, 5 uM CoCl2, printed as >=): > 15 µM | Kd (Ni(II)-RcnR, 5 uM NiCl2, printed as >=): > 5.9 µM
